Anti-infective test results gathered from many reports (values: NIAID ChemDB through PubChem).

MIC bound: limit read from a one-dose screen. Blank or dashed fields: not listed here. Inhibition is in % at the dose shown (toxicity tests: loss of growth or viability). MIC50, MIC90 and the like: level of inhibition, or share of isolates inhibited. Neighbouring rows are from separate reports. ICn is the concentration giving n% inhibition. ECn is the concentration giving n% inhibition of infection, replication or growth.

structure | cell line | dose | target | method | test | strain or isolate | endpoint | organism | value
CC(=O)NCCNc1nnc(NC(=O)c2ccc3c(c2)C(=O)OC3=O)s1 | - | - | Polymerase | - | target | - | IC50 | Human cytomegalovirus | >25 µM
Nc1cc(S(=O)(=O)[O-])cc2cc(S(=O)(=O)[O-])ccc12 | Human embryonic lung cells | 50 µg/mL | - | cytopathic effect | culture | TYPE 3 | inhibition | Adenovirus | 0%
O=C(Nc1nnc(NCCc2ccccc2)s1)c1ccc([N+](=O)[O-])o1 | - | - | Polymerase | - | target | - | IC50 | Human cytomegalovirus | >25 µM
CCOC(=O)NC(C)(C)CN(C(=O)OCC)C(C)(C)CO | - | - | - | BACTEC | culture | H37Rv | MIC | Mycobacterium tuberculosis | ≥12.8 µg/mL
O=S(=O)(O)c1cc(O)c2c(O)c(N=Nc3ccccc3)c(S(=O)(=O)O)cc2c1 | Human amnion AV3 cells | 5 µg/mL | - | cytopathic effect | culture | - | inhibition | Herpes simplex virus | 0%
CCNc1ccc(C(=C2C=CC(=[NH+]CC)C(C)=C2)c2ccc(NCC)cc2)cc1.[Cl-] | - | - | - | - | culture | H37Rv | MIC | Mycobacterium tuberculosis | >100 µg/mL
Cc1ccc(N2CCN(c3cncc(-c4ccc(C(F)(F)F)cc4)n3)CC2)cc1 | - | - | UL97 kinase | - | target | - | IC50 | Cytomegalovirus | <10 µM
CC(=O)OCCn1c2nc(=O)[nH]c(=O)c-2nc2cc(C)c(C)cc21 | - | - | - | BACTEC | culture | H37Rv | MIC bound | Mycobacterium tuberculosis | >6.25 µg/mL
COc1ccc(/C=C/C(=O)c2ccccn2)cc1 | - | - | - | - | culture | H37Rv | EC50 | Mycobacterium tuberculosis | >12.5 µg/mL
CC(O)(c1ccccc1)C(C(c1ccccc1)N1CCOCC1)N1CCOCC1 | - | - | - | - | culture | H37Rv | MIC | Mycobacterium tuberculosis | >100 µg/mL
O=C(/C=C/c1ccccn1)c1ccccn1 | - | - | - | - | culture | H37Rv | EC50 | Mycobacterium tuberculosis | >12.5 µg/mL
NC(=O)C1(C(N)=O)CC1 | - | - | - | - | culture | H37Rv | MIC | Mycobacterium tuberculosis | >100 µg/mL
CN(C)C(=S)N1C(=S)N(c2ccccc2)C(=Nc2ccccc2)C1=Nc1ccccc1 | - | 12.5 µg/mL | - | BACTEC | culture | H37Rv | inhibition | Mycobacterium tuberculosis | 0%
O=[N+]([O-])c1ccc(/C=C/c2ccccn2)cc1 | - | - | - | - | culture | H37Rv | MIC | Mycobacterium tuberculosis | >100 µg/mL
COc1cc(O)c(C(=O)/C=C/c2cc(OC)c(OC)c(OC)c2)c(O)c1 | - | 12.5 µg/mL | - | - | culture | - | inhibition | Mycobacterium tuberculosis | 0%
Cn1[nH]c(=O)c2ccccc2c1=O | - | - | - | - | culture | H37Rv | MIC | Mycobacterium tuberculosis | >100 µg/mL
CCCCCCCC/C=C/CCCCCC1CCCC(C)N1 | - | - | - | - | culture | TAC-R | MIC | Mycobacterium tuberculosis | 6.3 µg/mL
Cc1cc(O)c2c3c(c(=O)oc2c1)CCC(C)C3 | - | - | - | - | culture | H37Rv | MIC | Mycobacterium tuberculosis | >100 µg/mL
C#CC[C@@H](C(=O)N[C@H](/C=C/C(=O)OCC)C[C@@H]1CCNC1=O)n1cccc(NC(=O)c2cc(C)on2)c1=O | H1-HELA | - | - | cytopathic effect / XTT | culture | Serotype 89 | EC50 | Rhinovirus | 0.011 µM
CC(C)NS(=O)(=O)c1nc2ccccc2s1 | - | - | - | - | culture | H37Rv | MIC | Mycobacterium tuberculosis | >100 µg/mL
Cc1cc(=O)n2c(n1)sc1ccc3ccccc3c12 | - | 6.25 µg/mL | - | resazurin | culture | H37Rv | inhibition | Mycobacterium tuberculosis | 15%
O=C(Nc1nnc(NCc2ccc(F)cc2)s1)c1ccc(F)cc1F | - | - | Polymerase | - | target | - | IC50 | Human cytomegalovirus | >25 µM
Nc1ccc(S(=O)(=O)N(CCO)c2ccccc2)cc1 | - | - | - | - | culture | H37Rv | MIC | Mycobacterium tuberculosis | >100 µg/mL
CC(C)=C1C=C2CC[C@@H]3[C@](C)(CCC[C@@]3(C)C(=O)O)[C@H]2CC1 | - | 12.5 µg/mL | - | BACTEC | culture | H37Rv | inhibition | Mycobacterium tuberculosis | 17%
Nc1ccc(S(=O)(=O)O)cc1 | Human embryonic lung cells | 10 µg/mL | - | cytopathic effect | culture | TYPE 3 | inhibition | Adenovirus | 0%
C[C@H](Cc1ccc(O)c(O)c1)[C@@H](C)Cc1ccc(O)c(O)c1 | - | - | - | broth dilution | culture | CCC 123-2000 | MIC80 | Candida kefyr | 250 µg/mL
Cc1cccc(N2CCN(c3cncc(-c4cc5ccccc5s4)n3)CC2C)c1 | - | 10 µM | UL97 kinase | - | target | - | inhibition | Cytomegalovirus | >15%
CCCCCCCC/C=C/CCCCCCCC(=O)Nc1nnc(NCCCN2CCN(C)CC2)s1 | - | - | Polymerase | - | target | - | IC50 | Human cytomegalovirus | <25 µM
O=C(Nc1ccc(S(=O)(=O)[O-])c2cccc(S(=O)(=O)[O-])c12)c1ccccc1 | Human amnion AV3 cells | 10 µg/mL | - | cytopathic effect | culture | - | inhibition | Rhinovirus | 0%
OCCN1CCN(CCO)C1=S | - | - | - | - | culture | H37Rv | MIC | Mycobacterium tuberculosis | 50 µg/mL
NP1(Oc2ccc(F)cc2)=NP(N)(Oc2ccc(F)cc2)=NP(Oc2ccc(F)cc2)(Oc2ccc(F)cc2)=N1 | - | - | - | BACTEC | culture | H37Rv | MIC | Mycobacterium tuberculosis | ≥128 µg/mL
O=C(Nc1nnc(NCCCNC2CCCCC2)s1)c1ccc(C(F)(F)F)cc1 | - | - | Polymerase | - | target | - | IC50 | Human cytomegalovirus | <25 µM
CC(=O)Nc1ccc(C(=O)O)c(O)c1 | - | - | - | - | culture | H37Rv | MIC | Mycobacterium tuberculosis | >100 µg/mL
CNC(=O)OCc1c(C)oc(-c2ccccc2)c1COC(=O)NC | - | - | - | BACTEC | culture | H37Rv | MIC bound | Mycobacterium tuberculosis | >12.5 µg/mL
CCOc1ccnc(N)n1 | - | - | - | - | culture | H37Rv | MIC | Mycobacterium tuberculosis | >100 µg/mL
Clc1cccc(N2CCN(c3cncc(-c4ccccc4)n3)CC2)c1 | - | 1 µM | UL97 kinase | - | target | - | inhibition | Cytomegalovirus | <50%
O=S(=O)([O-])c1cccc(O)c1 | Human embryonic lung cells | 50 µg/mL | - | cytopathic effect | culture | TYPE 3 | inhibition | Adenovirus | 0%
COC(=O)c1ccc(N2CCOS(=O)OCC2)cc1OC(=O)c1ccccc1 | - | - | - | BACTEC | culture | H37Rv | MIC bound | Mycobacterium tuberculosis | >12.5 µg/mL
Fc1ccc(N2CCCCC2)c(NC(=S)c2ccncc2)c1 | - | 10 µM | HIPK4 | kinase activity | host protein | - | inhibition | - | 35.1%
C[C@H]1O[C@@H](c2ccc3c(c2O)C(=O)C2=C(C3=O)[C@@]3(O)C(=O)C[C@](C)(O)C[C@@]3(O)C=C2)C[C@@H](O)[C@@H]1O | - | - | - | BACTEC | culture | H37Rv | MIC bound | Mycobacterium tuberculosis | >12.5 µg/mL
C=CCc1cccc(CC=C)c1O | - | - | - | - | culture | H37Rv | MIC | Mycobacterium tuberculosis | >100 µg/mL
CCO/N=C/c1ccc(OCCC2CCN(c3ccc(C)nn3)CC2)cc1 | KB | - | - | neutral red | culture | B632 (LDL receptor group 1B) | EC50 | Rhinovirus | 0.016 µM
COc1ccc(N2CCN(c3cncc(-c4ccc(C(C)(C)C)cc4)n3)CC2)cc1OC | - | 10 µM | UL97 kinase | - | target | - | inhibition | Cytomegalovirus | >15%
CC1=CCC[C@H]2[C@](C)(Cc3cc(O)ccc3O)[C@@H](C)CC[C@]12C | - | - | - | BACTEC | culture | H37Rv | MIC | Mycobacterium tuberculosis | ≥12.5 µg/mL
Nc1ccccc1/C=C/C(=O)c1ccc(Br)cc1O | - | - | - | - | culture | - | EC50 | Mycobacterium tuberculosis | >12.5 µg/mL
COC(=O)C1CSC(c2c(COP(=O)([O-])[O-])cnc(C)c2[O-])N1.[Na+].[Na+].[Na+] | - | - | - | BACTEC | culture | H37Rv | MIC bound | Mycobacterium tuberculosis | >12.5 µg/mL
COc1ccccc1C(=O)CC(=O)Nc1cccc(NC(=O)C(C)Oc2ccc(C(C)(C)C)cc2)c1 | - | - | - | - | culture | H37Rv | MIC | Mycobacterium tuberculosis | 50 µg/mL
COc1ccc(S(=O)(=O)NC(=S)S)cc1 | - | - | - | - | culture | ETA-R | MIC | Mycobacterium tuberculosis | >12.8 µg/mL
O=C(O)CCc1ccc(-c2ccccc2)n1-c1ccccc1 | - | - | - | - | culture | H37Rv | MIC | Mycobacterium tuberculosis | >100 µg/mL
O=C(Nc1ccc2cc(S(=O)(=O)[O-])cc(S(=O)(=O)[O-])c2c1)c1ccccc1 | Human amnion AV3 cells | 5 µg/mL | - | cytopathic effect | culture | - | inhibition | Rhinovirus | 0%
Cc1ccccc1Sc1ccccc1N | - | - | - | - | culture | H37Rv | MIC | Mycobacterium tuberculosis | >100 µg/mL
CC[n+]1c2ccc(C)cc2nc2c3ccccc3c(N)cc21.[Cl-] | VERO | - | - | BACTEC | culture | H37Rv | MIC | Mycobacterium tuberculosis | 6.25 µg/mL
COc1ccc(C(=O)/C=C/c2ccncc2)cc1 | - | 12.5 µg/mL | - | - | culture | - | inhibition | Mycobacterium tuberculosis | 0%
C/C(=N\NC(=O)c1ccccc1O)c1cccc(/C(C)=N/NC(=O)c2ccccc2O)n1 | - | - | - | BACTEC | culture | H37Rv | MIC bound | Mycobacterium tuberculosis | >12.5 µg/mL
O=C1c2ccccc2OC(c2ccccc2)C1O | - | - | - | - | culture | H37Rv | EC50 | Mycobacterium tuberculosis | >12.5 µg/mL
CC(=O)OC1C(O[C@H]2CC[C@]34O[C@]35CC[C@]3(C)C(C6(C)CC[C@@H](C(C)(C)O)O6)[C@@H](O)CC3(C)[C@@H]5CC(OC3OC(CO)C(O)C(O)C3O)C4C2(C)C)OCC(O)C1O | - | 12.5 µg/mL | - | BACTEC | culture | H37Rv | inhibition | Mycobacterium tuberculosis | 6%
CC(=O)N(C)c1ccc(I)cc1 | - | - | - | - | culture | H37Rv | MIC | Mycobacterium tuberculosis | >100 µg/mL
c1ccc(/C(=N/Nc2ccc3ccccc3n2)c2ccccn2)cc1 | - | - | - | - | culture | H37Rv | MIC | Mycobacterium tuberculosis | 1.6 µg/mL
COc1ccc(/C=C/C(=O)c2ccc(F)cc2O)cc1 | - | 12.5 µg/mL | - | - | culture | - | inhibition | Mycobacterium tuberculosis | 63%
CCN(CC)Cc1cc(O)c(CN(CC)CC)cc1O | - | - | - | - | culture | H37Rv | MIC | Mycobacterium tuberculosis | >100 µg/mL
O=C(Nn1c(-c2ccccc2)nc2ccccc2c1=O)c1ccccn1 | - | - | - | resazurin | culture | H37Rv | MIC bound | Mycobacterium tuberculosis | >6.25 µg/mL
COc1ccccc1N1CCN(c2cncc(-c3ccoc3)n2)CC1 | - | 1 µM | UL97 kinase | - | target | - | inhibition | Cytomegalovirus | <50%
S=C(Nc1ccc(-c2ccccc2)cc1)Nc1ccc(-c2ccccc2)cc1 | - | - | - | - | culture | H37Rv | MIC | Mycobacterium tuberculosis | >100 µg/mL
COc1ccc(-c2cncc(N3CCN(c4cccc(C(F)(F)F)c4)CC3)n2)cc1OC | - | - | UL97 kinase | - | target | - | IC50 | Cytomegalovirus | <100 µM
O=S([O-])CNc1ccc(S(=O)(=O)c2ccc(NCS(=O)[O-])cc2)cc1.[Na+].[Na+] | - | - | - | - | culture | H37Rv | MIC | Mycobacterium tuberculosis | >100 µg/mL
CCCCCCCCCCCCCCCCSC1=C(C)C(=O)C(OC)=C(OC)C1=O | - | - | - | resazurin | culture | H37Rv | MIC bound | Mycobacterium tuberculosis | >6.25 µg/mL
OCCOCCN1CCOCC1 | - | - | - | - | culture | H37Rv | MIC | Mycobacterium tuberculosis | >100 µg/mL
Cn1c(=O)nc2n(-c3ccc(Cl)cc3)c(-c3ccccc3)c(-c3ccccc3)nc-2c1=O | - | 12.5 µg/mL | - | BACTEC | culture | H37Rv | inhibition | Mycobacterium tuberculosis | 0%
O=C(Nc1nnc(NC2CCc3ccccc32)s1)c1ccc([N+](=O)[O-])o1 | - | - | Polymerase | - | target | - | IC50 | Human cytomegalovirus | >25 µM

Repeating the first 8 entries:

| structure | cell line | dose | target | method | test | strain or isolate | endpoint | organism | value |
|---|---|---|---|---|---|---|---|---|---|
| CC(=O)NCCNc1nnc(NC(=O)c2ccc3c(c2)C(=O)OC3=O)s1 | - | - | Polymerase | - | target | - | IC50 | Human cytomegalovirus | >25 µM |
| Nc1cc(S(=O)(=O)[O-])cc2cc(S(=O)(=O)[O-])ccc12 | Human embryonic lung cells | 50 µg/mL | - | cytopathic effect | culture | TYPE 3 | inhibition | Adenovirus | 0% |
| O=C(Nc1nnc(NCCc2ccccc2)s1)c1ccc([N+](=O)[O-])o1 | - | - | Polymerase | - | target | - | IC50 | Human cytomegalovirus | >25 µM |
| CCOC(=O)NC(C)(C)CN(C(=O)OCC)C(C)(C)CO | - | - | - | BACTEC | culture | H37Rv | MIC | Mycobacterium tuberculosis | ≥12.8 µg/mL |
| O=S(=O)(O)c1cc(O)c2c(O)c(N=Nc3ccccc3)c(S(=O)(=O)O)cc2c1 | Human amnion AV3 cells | 5 µg/mL | - | cytopathic effect | culture | - | inhibition | Herpes simplex virus | 0% |
| CCNc1ccc(C(=C2C=CC(=[NH+]CC)C(C)=C2)c2ccc(NCC)cc2)cc1.[Cl-] | - | - | - | - | culture | H37Rv | MIC | Mycobacterium tuberculosis | >100 µg/mL |
| Cc1ccc(N2CCN(c3cncc(-c4ccc(C(F)(F)F)cc4)n3)CC2)cc1 | - | - | UL97 kinase | - | target | - | IC50 | Cytomegalovirus | <10 µM |
| CC(=O)OCCn1c2nc(=O)[nH]c(=O)c-2nc2cc(C)c(C)cc21 | - | - | - | BACTEC | culture | H37Rv | MIC bound | Mycobacterium tuberculosis | >6.25 µg/mL |